System: A. americanum
Assay: Acaricidal activity by direct injection of a single dose of toxin

## LLACLFGNGRCSSNRDCCELTPVCKRGSCVSSGPGLVGGILGGIL
Single dose 6 nmol/g (about 25 μg/g) injected, unengorged male and female ticks, at 48 hours
  mortality: 100%
Single dose 6 nmol/g injected
  onset of symptoms: within a few minutes
  paralysis: irreversibly paralyzed
